Measured values taken from patent US5543429A, “Antifungal agents” (Merck & Co., Inc., priority 1995, dated 1996).

Test system: panel of fungi
Assay: broth microdilution assay against a panel of fungi
Conditions: MIC and MFC

| SMILES | effectiveness compared with amphotericin B |
| --- | --- |
| C=CC1C(=C)CCC2C1CC1OC(=O)C3(C)C(O)CCC2(C)C13O (centres unmarked) [Compound I] | effective at concentrations comparable to an established antifungal agent, amphotericin B |
| C=CC1=CCC2C(CC3OC(=O)C4(C)C(O)CCC2(C)C34O)C1C (centres unmarked) [Compound II] | effective at concentrations comparable to an established antifungal agent, amphotericin B |
